Potato spindle tuber viroid, stem 15: variant abundance in plants

Data from the supplement of Wu et al. 2024, doi:10.1371/journal.ppat.1012142.

Region: stem 15 of PSTVd (intermediate strain), upper and lower strand joined, each 5' to 3', the first 9 letters being the upper strand. Wild type: CUGGAGCGAUCGCUUCGG. Varied positions (N): CUGGAGCGAUNGNNUNNG.

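Three N. benthamiana plants were inoculated with the whole mutant pool. Samples came from the inoculated region at 5 days, the leaf margin at 10 and upper systemic leaves at 12.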

Numbers give reads per thousand; 0 = not seen among the reads, higher = more abundant. Each value is the mean of three plants. "Pool" is the share in the plasmid pool used as inoculum, on the same scale. The inoculated region was read from the minus strand, the other sites from the plus strand. IR is the inoculated region, LM the leaf margin, Sys the systemic leaves.

| sequence | pool | IR | LM | Sys |
|---|---|---|---|---|
| CUGGAGCGAUGGUCUCGG | 0.824 | 0.262 | 0.0265 | 0 |
| CUGGAGCGAUGGCUUCAG | 1.15 | 0.310 | 0.0616 | 0 |
| CUGGAGCGAUUGAAUUGG | 0.857 | 0.293 | 0.0276 | 0 |
| CUGGAGCGAUUGAUUCGG | 1.03 | 0.300 | 0.0249 | 0.00660 |
| CUGGAGCGAUCGCCUCGG | 1.03 | 20.3 | 16.6 | 12.0 |
| CUGGAGCGAUAGGGUUUG | 0.857 | 0.291 | 0.0144 | 0 |
| CUGGAGCGAUGGGCUAGG | 0.889 | 0.294 | 0.0403 | 0 |
| CUGGAGCGAUUGCGUGGG | 2.34 | 1.38 | 0.0403 | 0.00664 |
| CUGGAGCGAUGGCGUCAG | 0.727 | 0.335 | 0.0654 | 0 |
| CUGGAGCGAUGGUUUAGG | 0.954 | 0.281 | 0.0419 | 0 |
| CUGGAGCGAUGGUGUGCG | 0.792 | 0.333 | 0.0122 | 0 |
| CUGGAGCGAUCGAAUUAG | 0.646 | 0.321 | 0.0282 | 0 |
| CUGGAGCGAUAGGUUGGG | 0.808 | 0.287 | 0.0213 | 0 |
| CUGGAGCGAUUGUAUACG | 0.727 | 0.292 | 0.0312 | 0 |
| CUGGAGCGAUGGUGUACG | 0.776 | 0.292 | 0.0350 | 0 |
| CUGGAGCGAUCGUUUAGG | 0.711 | 0.353 | 0.0251 | 0 |
| CUGGAGCGAUGGACUUAG | 0.889 | 1.37 | 0.432 | 0 |
| AUGGAGCGAUGGGGUGGG | 0.0162 | 0 | 0 | 0 |
| CUGGAGCGAUAGCUUACG | 1.07 | 0.357 | 0.0510 | 0 |
| CUGGAGCGAUGGAAUCGG | 0.873 | 0.254 | 0.0282 | 0 |
| CUGGAGCGAUCGGCUUCG | 1.78 | 11.4 | 0.0227 | 0.0133 |
| CUGGAGCGAUUGUUUGAG | 0.727 | 1.14 | 0.0160 | 0 |
| CUGGAGCGAUGGUGUGAG | 0.873 | 0.399 | 0.0463 | 0 |
| CUGGAGCGAUAGUGUGCG | 2.08 | 1.05 | 0.0350 | 0.0132 |
| CUGGAGCGAUGGAAUACG | 0.760 | 0.268 | 0.0318 | 0 |
| CUGGAGCGAUAGGUUAAG | 1.16 | 0.341 | 0.0839 | 0 |
| CUGGAGCGAUUGUUUCUG | 1.00 | 1.08 | 0.0425 | 0 |
| CUGGAGCGAUGGGCUUAG | 0.776 | 1.39 | 0.00528 | 0 |
| CUGGAGCGAUUAUAUUGG | 0.0323 | 1.16 | 0.596 | 0.614 |
| CUGGAGCGAUAGGGUCCG | 0.873 | 0.309 | 0.0510 | 0 |
| CUGGAGCGAUGGUCUUCG | 0.711 | 1.03 | 0.00908 | 0 |
| CUGGAGCGAUCGAGUGUG | 0.905 | 0.318 | 0.0191 | 0 |
| CUGGAGCGAUCGCUUGGG | 0.954 | 0.416 | 0.105 | 0.108 |
| CUGGAGCGAUUGGUUAAG | 0.840 | 0.175 | 0.0244 | 0 |
| CUGGAGCGAUUGUCUUCG | 0.824 | 1.48 | 0.648 | 0.571 |
| CUGGAGCGAUCGUCUUUG | 0.792 | 1.37 | 0.0229 | 0 |
| CUGGAGCGAUAGUAUAAG | 0.921 | 0.274 | 0.0365 | 0 |
| CUGGAGCGAUAGUUUAAG | 0.873 | 0.215 | 0.0616 | 0 |
| CUGGAGCGAUAGUCUCGG | 0.824 | 0.222 | 0.0367 | 0 |
| CUGGAGCGAUGGCAUUCG | 0.824 | 0.324 | 0.0334 | 0 |
| CUGGAGCGAUCGAAUAUG | 1.12 | 0.247 | 0.00528 | 0 |
| CUGGAGCGAUUGGGUUCG | 0.873 | 0.266 | 0.0282 | 0 |
| CUGGAGCGAUGGAUUGGG | 1.02 | 0.341 | 0.0419 | 0 |
| CUGGAGCGAUCGGAUUCG | 0.937 | 0.255 | 0.0260 | 0 |
| CUGGAGCGAUCGUAUCUA | 0.598 | 0.454 | 0 | 0 |
| CUGGAGCGAUCGCAUCGG | 0.937 | 0.583 | 0.292 | 0.288 |
| CUGGAGCGAUCGAUUGCG | 0.905 | 0.300 | 0.00528 | 0 |
| CUGGAGCGAUCGUGUUAG | 0.857 | 1.48 | 0.320 | 0 |
| CUGGAGCGAACGCUUCGG | 0.0162 | 0.0723 | 0.0478 | 0.0338 |
| CUGGAGCGAUGGUAUAGG | 0.743 | 0.238 | 0.0320 | 0 |
| CUGGAGCGAUAGAAUCCG | 0.970 | 0.565 | 0.0213 | 0 |
| CUGGAGCGAUUGCCUAUG | 0.760 | 0.261 | 0.0197 | 0 |
| CUGGAGCGAUGGAUUAGG | 0.873 | 0.245 | 0.0191 | 0 |
| CUGGAGCGAUGGCCUAGG | 1.96 | 1.08 | 0.0388 | 0.0362 |
| CUGGAGCGAUAGGGUUCG | 0.921 | 0.232 | 0.0122 | 0 |
| CUGGAGCGAUAGCAUGGG | 0.986 | 0.268 | 0.0372 | 0 |
| CUGGAGCGAUCGCAUUAG | 0.889 | 0.307 | 0.0510 | 0 |
| CUGGAGCGAUUGGUUGAG | 0.937 | 0.309 | 0.0160 | 0 |
| CUAGAGCGAUAGCAUGAG | 0.0162 | 0 | 0 | 0 |
| CUGGAGCGAUCGUGUCCG | 0.760 | 0.261 | 0 | 0 |
| CUGGAGCGAUUGGGUUAG | 1.07 | 1.76 | 0.693 | 0.392 |
| CUGGAGCGAUAGGAUCAG | 0.711 | 0.300 | 0.0440 | 0 |
| CUGGAGCGAUUGUAUAUG | 0.873 | 0.318 | 0.0685 | 0 |
| CUGGAGCGAUAGCCUUAG | 0.905 | 1.45 | 0.594 | 0 |
| CUGGAGCGAUUGUAUUAG | 1.24 | 1.60 | 0.652 | 0.531 |
| CUGGAGCGAUUGUCUUUG | 0.711 | 1.46 | 0.727 | 0.621 |
| CUGGAGCGAUUGUUUAGG | 1.03 | 0.580 | 0.0276 | 0 |
| CUGGAGCGAUGGCCUGAG | 0.954 | 0.337 | 0.0106 | 0 |
| CUGGAGCGAUGGGUUGAG | 1.05 | 0.271 | 0.0276 | 0 |

Excerpt, the final 9 entries:

sequence	pool	IR	LM	Sys
CUGGAGCGAUUGGGUUAG	1.07	1.76	0.693	0.392
CUGGAGCGAUAGGAUCAG	0.711	0.300	0.0440	0
CUGGAGCGAUUGUAUAUG	0.873	0.318	0.0685	0
CUGGAGCGAUAGCCUUAG	0.905	1.45	0.594	0
CUGGAGCGAUUGUAUUAG	1.24	1.60	0.652	0.531
CUGGAGCGAUUGUCUUUG	0.711	1.46	0.727	0.621
CUGGAGCGAUUGUUUAGG	1.03	0.580	0.0276	0
CUGGAGCGAUGGCCUGAG	0.954	0.337	0.0106	0
CUGGAGCGAUGGGUUGAG	1.05	0.271	0.0276	0

Sequences that differ at fixed positions probably stem from PCR or sequencing errors, and defective variants can be carried along by functional ones. Wild type was 10.2 per thousand in the pool and the most common sequence in every sample (inoculated region 285, 367, 312; leaf margin 785, 865, 782; systemic leaves 854, 898, 915). With 36,693-63,082 reads a sample, very low values are single reads.